These are literature values, as cited in US6015808A, “Synthesis of pharmaceutical compositions with lactams and β-lactams/oxo thia azabicyclo compounds” (priority 1995, dated 2000).

SMILES strings stand for the structures.

The data set deals with MAC strain 101 in mouse peritoneal macrophages or J774-A cell lines. The following applies: cited from earlier work.

`NCC[C@H](O)C(=O)N[C@@H]1C[C@H](N)[C@@H](O[C@H]2O[C@H](CN)[C@@H](O)[C@H](O)[C@H]2O)[C@H](O)[C@H]1O[C@H]1O[C@H](CO)[C@@H](O)[C@H](N)[C@H]1O` [amikacin]: the “activity against MAC inside macrophages (earlier studies)” value is “did not exhibit any activity against MAC inside macrophages”.
